Results of unrelated studies side by side (data: NIAID ChemDB).

Common to all: tests on isolated targets; organism: Hepatitis C virus

Blank or dashed fields: not listed here. Percent inhibition refers to the dose given; in toxicity tests it is the harm to the cells. ICn is the concentration giving n% inhibition. a–b is a range or a potency band. Neighbouring rows are from separate reports.

compound	protein	endpoint	dose	value
CC(C)N(C(=O)c1ccc(C(F)(F)F)cc1F)c1cc(-c2ccccc2)sc1C(=O)O	NS3 ATPase	IC50	-	<5 µM
COc1ccccc1NC(=O)Nc1cccc(-c2nc(C(=O)O)c(O)c(=O)[nH]2)c1	HCV polymerase	IC50	-	<100 µM
Cc1ccc(-c2nc3ccc(-c4nc5cc(C(=O)O)ccc5n4C4CCCCC4)cc3nc2-c2ccc(C)cc2)cc1	NS5B polymerase	inhibition	33 µM	99.92%
CNC(=O)c1c(-c2ccc(F)cc2)oc2cc(-c3ncc[nH]3)c(OC)cc12	Nonstructural protein 5B	IC50	-	≤0.5 µM
Cc1cccc(N2CCN(C(=O)Nc3cc(-c4ccccc4)sc3C(=O)O)CC2)n1	NS3 ATPase	IC50	-	5–20 µM
O=C(O)c1cc2nc(-c3ccc(Cl)cc3)cc(NCc3ccc(Cl)cc3)n2n1	RNA-dependent RNA polymerase	IC50	-	>10 µM
CC(=O)c1ccc(-c2cc(N(C)C(=O)c3ccc(C)cc3)c(C(=O)O)s2)s1	NS3 ATPase	IC50	-	<5 µM
Cc1cc(C)n2ncc(-c3nc(C(=O)O)c(O)c(=O)[nH]3)c2n1	HCV polymerase	IC50	-	<100 µM
Cc1ccc2cc(-c3ccc4cc(-c5nc6cc(C(=O)O)ccc6n5C5CCCCC5)ccc4n3)ccc2c1	NS5B polymerase	inhibition	100 µM	101%
O=C(Nc1cccc(-c2nc(C(=O)O)c(O)c(=O)[nH]2)c1)NC1CCN(Cc2ccccc2)CC1	HCV polymerase	IC50	-	<100 µM
CNC(=O)c1c(-c2ccc(F)cc2)oc2cc(N3CCOCC3)c(OC)cc12	Nonstructural protein 5B	IC50	-	≤0.5 µM
CCOC(=O)c1cnn2c(C3CCCCC3)c(-c3ccc(OC)cc3)cnc12	RNA-dependent RNA polymerase	IC50	-	>10 µM
Cc1cccc(-c2cc(N(C(=O)C3CCC(C)CC3)C(C)C)c(C(=O)O)s2)c1	NS3 ATPase	IC50	-	<5 µM
O=C(O)c1cc2nc(-c3ccccc3)cc(-c3ccc(Oc4ccccc4)cc3)n2n1	RNA-dependent RNA polymerase	IC50	-	>10 µM
CCOc1cc(-c2ccccc2)nc2ccc(-c3nc4cc(C(=O)O)ccc4n3C3CCCCC3)cc12	NS5B polymerase	inhibition	33 µM	94.82%
O=C(Nc1ccccc1-c1nc(C(=O)O)c(O)c(=O)[nH]1)NC1CCCCC1	HCV polymerase	IC50	-	<100 µM
O=C(O)c1cnn2c(C3CCCCC3)c(C3CC3c3ccccc3)cnc12	RNA-dependent RNA polymerase	IC50	-	>10 µM
O=C(O)c1cnc2c(c1)nc(-c1ccc3nc(-c4cc(O)ccc4-c4ccc(Cl)cc4)ccc3c1)n2C1CCCCC1	NS5B polymerase	inhibition	33 µM	101%
O=C(Nc1ccsc1-c1nc(OCc2ccccc2)c(O)c(C(=O)O)n1)OCc1ccccc1	HCV polymerase	IC50	-	<50 µM
CCN(CC)C(=O)COc1cc2c(C(=O)NC)c(-c3ccc(F)cc3)oc2cc1N(C)S(C)(=O)=O	Nonstructural protein 5B	IC50	-	≤0.5 µM
O=C(N[C@@H](Cc1cc2ccccc2[nH]1)C(=O)O)c1cnn2c(C3CCCCC3)c(-c3ccc(OCc4ccccc4)cc3)cnc12	RNA-dependent RNA polymerase	IC50	-	<1 µM
O=C(c1ccc(-c2ccc(Cl)cc2)c(-c2ccc3cc(-c4nc5ccccc5n4C4CCCCC4)ccc3n2)c1)N1CCCC1	NS5B polymerase	inhibition	100 µM	95.05%
CC(NC(=O)Nc1cscc1-c1nc(C(=O)O)c(O)c(=O)[nH]1)c1ccc(OC(C)(C)C)cc1	HCV polymerase	IC50	-	<25 µM
O=C(O)c1cnn2c(C3CCCCC3)c(-c3ccc4c(c3)OCO4)cnc12	RNA-dependent RNA polymerase	IC50	-	1–10 µM
Cc1cccc(CN(C(=O)C2CC2)c2cc(-c3ccccc3)sc2C(=O)O)c1	NS3 ATPase	IC50	-	5–20 µM
O=C(NC(Cc1ccccc1)C(=O)O)c1ccc2c(c1)nc(-c1ccc3nc(-c4ccccc4)cnc3c1)n2C1CCCCC1	NS5B polymerase	inhibition	100 µM	96.4%
CNC(=O)c1c(-c2ccc(F)cc2)oc2cc(N3CCOCC3)c(OC(F)F)cc12	Nonstructural protein 5B	IC50	-	≤0.5 µM
COc1ccc(-c2ccco2)c(-c2ccc3cc(-c4nc5cc(C(=O)O)ccc5n4C4CCCCC4)ccc3n2)c1	NS5B polymerase	inhibition	33 µM	98.26%
N[C@H](Cc1ccccc1)C(=O)Nc1ccsc1-c1nc(C(=O)O)c(O)c(=O)[nH]1	HCV polymerase	IC50	-	<25 µM
c1ccc(COc2ccc(-c3cnc4c(-c5nn[nH]n5)cnn4c3C3CC3)cc2)cc1	RNA-dependent RNA polymerase	IC50	-	>10 µM
O=C(O)c1ccc2c(c1)nc(-c1ccc3nc(-c4cnn(-c5ccccc5)c4)ccc3c1)n2C1CCCCC1	NS5B polymerase	inhibition	100 µM	101%

Repeating the final 2 entries:

| compound | protein | endpoint | dose | value |
|---|---|---|---|---|
| c1ccc(COc2ccc(-c3cnc4c(-c5nn[nH]n5)cnn4c3C3CC3)cc2)cc1 | RNA-dependent RNA polymerase | IC50 | - | >10 µM |
| O=C(O)c1ccc2c(c1)nc(-c1ccc3nc(-c4cnn(-c5ccccc5)c4)ccc3c1)n2C1CCCCC1 | NS5B polymerase | inhibition | 100 µM | 101% |